Biological target: T. cruzi proteasome chymotrypsin-like activity (Trypanosoma cruzi, UniProt V5BU39)
Assay: Primary T. cruzi proteasome chymotrypsin-like activity assay, hit compound pIC50 determination
Conditions: for Replicate 1 pIC50: independent replicate 1; for Replicate 2 pIC50: independent replicate 2

Chains of the proteins cited; added tags and fusions are not shown. Residues count along the entry.
UniProt V5BU39, 111-311 limits assumed: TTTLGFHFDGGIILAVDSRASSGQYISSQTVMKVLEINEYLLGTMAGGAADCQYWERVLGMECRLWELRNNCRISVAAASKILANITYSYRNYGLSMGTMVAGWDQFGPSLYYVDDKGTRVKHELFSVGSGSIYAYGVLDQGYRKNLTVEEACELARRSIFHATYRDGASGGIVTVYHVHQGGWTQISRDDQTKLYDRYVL
UniProt V5C017, 1-206 partner: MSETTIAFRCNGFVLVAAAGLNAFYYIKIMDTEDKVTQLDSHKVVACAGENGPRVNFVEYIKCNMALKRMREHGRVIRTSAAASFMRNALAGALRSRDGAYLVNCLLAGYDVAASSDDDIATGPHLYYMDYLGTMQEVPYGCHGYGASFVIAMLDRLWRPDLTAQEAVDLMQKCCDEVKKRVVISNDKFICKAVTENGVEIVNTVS
UniProt A0A2V2VW62, 32-246 partner limits assumed: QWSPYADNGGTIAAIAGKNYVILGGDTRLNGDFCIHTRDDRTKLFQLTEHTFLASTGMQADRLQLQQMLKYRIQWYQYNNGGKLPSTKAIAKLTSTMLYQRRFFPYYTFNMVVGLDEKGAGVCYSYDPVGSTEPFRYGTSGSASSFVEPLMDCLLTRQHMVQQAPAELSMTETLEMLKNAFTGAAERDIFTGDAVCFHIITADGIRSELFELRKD

Row | Compound | Replicate 1 pIC50 | Replicate 2 pIC50
1 | CSCC(=O)Nc1nc2c(s1)CCCC2 | 4.75 | 4.45
2 | O=C(Nc1ccc(F)c(Br)c1)N1CCCC1 | 4.95 | 4.94
3 | CC(=O)NCc1ccc(-c2csc(NC3CC3)n2)cc1 | 4.27 | 4.30
4 | NC(=O)c1nc(COc2ccc3c(c2)OCO3)no1 | 5.05 | 4.98
5 | Clc1ccc(-c2ccc(CNc3nn[nH]n3)o2)c(Cl)c1 | 4.62 | 4.23
6 | CCc1ccc(-c2cc(C(=O)O)c3cccc(C)c3n2)s1 | 4.14 | 4.09
7 | Cc1cc(N)n(-c2ccc(C)c(C)c2)n1 | 4.38 | 4.73
8 | Cc1cnn(C2CN(CC(=O)NCc3ccccn3)C2)c1 | 4.83 | 4.71
9 | Cc1cc(S(=O)(=O)Nc2cccc(-n3cccc3)c2)sc1C(=O)O | 4.78 | 4.72
10 | Cc1cccc(OCCN2C(=O)c3ccccc3S2(=O)=O)c1 | 4.87 | 4.90
11 | Cc1cc(C(=O)N2CCC3(CCCN(CC4CC4)C3=O)C2)c(C)n1C (stereo not shown) |  | 4.07
12 | COc1ccc(OCCN2C(=O)c3ccccc3S2(=O)=O)cc1 | 4.80 | 4.84
13 | CCN(CC(F)(F)F)C(=O)c1sc(NC(=O)c2ccco2)cc1C |  | 4.53
14 | CCCOc1ccc2c(c1)OCC(C(=O)O)=C2 | 4.70 | 4.60
15 | CCCNC(=O)COCc1nnc(C(=O)Nc2cccc(Cl)c2)s1 | 5.51 | 5.44
16 | N#Cc1cccnc1N1CCOC(c2cccc(Br)c2)C1 (stereo not shown) | 4.85 | 4.60
17 | CCC(C)c1ccc(C(=O)CSc2nnc(N)s2)cc1 (stereo not shown) |  | 5.13
18 | Nc1c(C(=O)N2CCCCCC2)nnn1-c1ccc(F)cc1 | 4.80 | 4.73
19 | Cc1nc(CN2CCCC(N(C)Cc3cscn3)C2)no1 (stereo not shown) | 4.46 | 4.58

Row | Compound | Replicate 1 pIC50 | Replicate 2 pIC50
20 | O=C(Nc1ccc(S(=O)(=O)C(F)F)cc1)c1cc(Cl)ccn1 | 4.91 | 4.90
21 | CCCNC(=O)COC(=O)c1csc(-c2ccccc2)n1 | 4.46 | 4.47
22 | Cc1ccc(-c2ccc(C(=O)O)o2)cc1 | 4.55 | 4.47
23 | CC(C)CCOc1ccc(C(=O)O)cc1 | 4.40 | 4.27
24 | N#Cc1cccnc1N1CCOC(c2ccccc2Br)C1 (stereo not shown) | 4.89 | 4.77
25 | O=C(O)COCC(=O)Nc1ccc(OCc2ccccc2)cc1 | 4.68 | 4.62
26 | CCNS(=O)(=O)c1cc(C(=O)Nc2ccccc2)ccc1OC | 4.64 | 4.62
27 | CCCC(NC(=O)c1cc(C)n(C2CC2)c1C)c1nn[nH]n1 (stereo not shown) | 4.25 | 4.17
28 | O=C(O)c1ccccc1NS(=O)(=O)c1ccc2ccccc2c1 | 4.58 | 4.52
29 | COc1cccc(NC(=O)c2csnn2)c1 | 4.59 | 4.51
30 | CNc1nc(-c2ccc3c(c2)CC(=O)N3C)cs1 | 4.13 | 4.04
31 | Cc1ccc(-c2nc(CN3CCC(C(=O)N(C)C)CC3)cs2)o1 | 4.37 | 4.33
32 | COc1ccc(NC(=O)c2csnn2)cc1 | 4.77 | 4.85
33 | Cc1ccc(-c2cc(C(=O)NC3CC3)on2)cc1 | 5.31 | 5.04
34 | OC1CCCN(Cc2csc(-c3cccs3)n2)C1 (stereo not shown) | 4.62 | 4.61
35 | COc1ccc(C(=O)OCC(=O)c2ccc(Cl)s2)cn1 | 4.15 | 4.00
36 | Cc1ccc(N(C)C2CCN(C(=O)CCc3ccco3)CC2)nn1 | 4.89 | 4.78
37 | CCN1CCc2c(sc(NC(=O)COc3ccc(Cl)cc3)c2C(N)=O)C1 | 5.11 | 5.07
38 | O=C(Nc1cccc(F)c1)c1cnccn1 | 4.18 | 4.24

Source: PMC6709497, “Identification of Novel Trypanosoma cruzi Proteasome Inhibitors Using a Luminescence-Based High-Throughput Screening Assay” (Antimicrobial Agents and Chemotherapy, 2019)
